# Measurements as given in US5739276A, “Conotoxin peptides” (dated 1998).
# Legend:
# [1] = system: cultured Aplysia neuron; conditions: 350 nM final bath concentration, ten seconds after application
# [2] = system: potassium currents; test: Patch clamp of potassium currents (MrVIA)
# [3] = system: calcium currents; test: Patch clamp of calcium currents (MrVIA)
# [4] = system: sodium current (INa+); test: Whole-cell patch clamp of inward sodium current (MrVIA)
substance,measurement,setting,value
Ala-Cys-Arg-Lys-Lys-Trp-Glu-Tyr-Cys-Ile-Val-Pro-Ile-Ile-Gly-Phe-Ile-Tyr-Cys-Cys-Pro-Gly-Leu-Ile-Cys-Gly-Pro-Phe-Val-Cys-Val,effect on action potential,[1],blocked
same,effect on potassium currents,[2],not affected
same,effect on calcium currents,[3],not affected
same,change in current voltage relationships on block,[4]; 40 nM,not associated with a change in the current voltage relationships
same,effect on INa+,[4]; 40 nM,Partial blockage
same,effect on inward INa+,"[4]; 250 nM, 30 seconds after application, -50 to 20 mV",completely blocked
